Compound potency records, mixed from different reports. Data source: NIAID ChemDB in PubChem.

Shared fields: tests in culture

ECn: concentration that inhibits the pathogen or its effect by n%.

structure	strain	cell line	dose	read by	species	mutations	measure	result
Cc1cn([C@H]2C[C@H](N=[N+]=[N-])[C@@H](CO)O2)c(=O)[nH]c1=O	2300	PBMC		ELISA	HIV-2		EC50	0.013 µM
C#CC[C@@H](C(=O)N[C@H](/C=C/C(=O)OCC)C[C@@H]1CCNC1=O)n1cccc(NC(=O)c2cc(C)on2)c1=O	Serotype 53	H1-HELA		cytopathic effect / XTT	Rhinovirus		EC50	0.036 µM
Cc1ccc(N2NOC(=O)C2S(=O)(=O)Nc2nc3ccc(Cl)cc3s2)cc1	MTCC323			broth dilution	Aspergillus clavatus		MIC	500 µg/mL
Cc1c(N2CC[C@@H]([C@H](C)N)C2)c(F)cn2c(=O)c(C(=O)O)cc(C3CC3)c12	ATCC 8043				Enterococcus faecium		MIC	0.02 µg/mL
CCN1CCC2(C1)C1CC3CC(C1)CC2C3	TYPE A21	HeLa	100 µM		Coxsackie virus		inhibition	20–40%
N=C(N)c1cn([C@H]2C[C@H](O)[C@@H](CO)O2)c2ncnc(N)c12	SMITH	MEF		plaque count	Mouse cytomegalovirus		EC50	11 µM
CN[C@@H]1CN(c2c(F)cn3c(=O)c(C(=O)O)cc(C4CC4)c3c2C)CC12CC2	21 strains (vancomycin-susceptible)				Enterococcus faecium		MIC	1 µg/mL
Nc1nc2c(ncn2COC(CO)CO)c(=O)[nH]1		SupT1		syncytia	Human herpesvirus 7		EC50	>50 µg/mL
CC[C@H]1OC(=O)[C@H](C)[C@@H](O)[C@H](C)[C@@H](O)[C@](C)(O)C[C@@H](C)C(=O)[C@H](C)[C@@H](O)[C@H]1C	KOS	HeLa		cytopathic effect	Herpes simplex virus 1		EC50	>200 µg/mL
N/C(=N/O)c1cn([C@@H]2O[C@H](CO)[C@@H](O)[C@@H]2O)c2ncnc(N)c12	SMITH	MEF		plaque count	Mouse cytomegalovirus		EC50	120 µM
O=c1cnn([C@@H]2O[C@H](CO)[C@@H](O)[C@H]2O)c(=O)[nH]1	E101	VERO		virus yield	West Nile virus		EC90	3.2 µg/mL
CO[C@@H]1[C@@H](O[C@@H]2O[C@H](C)[C@@H](O[C@H]3C[C@@](C)(O)[C@@H](O)[C@H](C)O3)[C@H](N(C)C)[C@H]2O)[C@@H](CC=O)C[C@@H](C)[C@@H](O[C@H]2CC[C@H](N(C)C)[C@H](C)O2)/C=C/C=C/C[C@@H](C)OC(=O)C[C@H]1O	Calf isolate	L929	4 µg/mL		Cryptosporidium parvum		inhibition	39.63%
Cc1ccc(N2NOC(=O)C2S(=O)(=O)Nc2ccc(-n3c(-c4cccc(Cl)c4)nc4ccccc4c3=O)cc2)cc1	MTCC323			broth dilution	Aspergillus clavatus		MIC	200 µg/mL
CC(C)OC(=O)[C@H](C)N[P@](=O)(OC[C@H]1O[C@@H](n2ccc(=O)[nH]c2=O)[C@](C)(F)[C@@H]1O)Oc1ccccc1	1b Con1	Huh7	0.06 µM	luciferase / replicon	Hepatitis C virus		inhibition	38.71%
Nc1ccn(C[C@H]2COP(=O)(O)CO2)c(=O)n1		CD4+ T lymphocytes		syncytia	Human herpesvirus 7		EC50	1 µg/mL
Nc1ccn([C@H]2CC[C@@H](CO)O2)c(=O)n1		P3HR-1		hybridisation	Epstein-Barr virus		EC50	28 µg/mL
CO[C@H]1/C=C/O[C@@]2(C)Oc3c(C)c(O)c4c(O)c(c(N5CCN(Cc6c(C)cc(C)cc6C)CC5)c(O)c4c3C2=O)NC(=O)/C(C)=C\C=C\[C@H](C)[C@H](O)[C@@H](C)[C@@H](O)[C@@H](C)[C@H](OC(C)=O)[C@@H]1C	3350-4				Mycobacterium avium		MBC	16 µg/mL
O=P(O)(O)COCCn1cnc2c(N3CCCC3)ncnc21		P3HR-1		hybridisation	Epstein-Barr virus		EC50	8 µg/mL
CN1CCC2(CC3CCC2(C)C3(C)C)C1	TYPE A21	HeLa	100 µM		Coxsackie virus		inhibition	20–40%
Cc1c(N2CCCC2N)c(F)cn2c(=O)c(C(=O)O)cc(C3CC3)c12	ATCC 8043				Enterococcus faecium		MIC	0.05 µg/mL
Nc1nc(NC(c2ccccc2)c2ccccc2)c2ncn(CCOCP(=O)(O)O)c2n1		P3HR-1		hybridisation	Epstein-Barr virus		EC50	1.3 µg/mL
Cc1ccc(N2NOC(=O)C2S(=O)(=O)Nc2ccc(-n3c(-c4c(Cl)cccc4[N+](=O)[O-])nc4ccccc4c3=O)cc2)cc1	MTCC323			broth dilution	Aspergillus clavatus		MIC	250 µg/mL
OC1c2ccccc2C=Cc2ccccc21	TYPE 16	HELA-H1		cytopathic effect	Rhinovirus		EC50	50 µM
Cc1c(N2CCC(C(N)C3CC3)C2)c(F)cn2c(=O)c(C(=O)O)cc(C3CC3)c12	ATCC 8043				Enterococcus faecium		MIC	0.05 µg/mL
NC12CC3CC(CC(C3)C1)C2	H1N1 PR/8/34	MDCK		plaque count	Influenza A virus		EC50	>50 µg/mL
O=C1CC(=O)N([C@@H]2O[C@H](CO)[C@@H](O)[C@H]2O)C(=O)N1	KOS	HeLa		cytopathic effect	Herpes simplex virus 1		EC50	>200 µg/mL
Cc1ccc(N2NOC(=O)C2S(=O)(=O)Nc2ccc(-n3c(-c4cccc([N+](=O)[O-])c4)nc4ccccc4c3=O)cc2)cc1	MTCC323		250 µg/mL	agar diffusion	Aspergillus clavatus		zone	24 mm
O=C(C[C@H]1NCCC[C@@H]1O)Cn1cnc2cc(Br)c(Cl)cc2c1=O	Calf isolate	L929	0.032 µg/mL		Cryptosporidium parvum		inhibition	64.74%
C=C[C@@H]1C[C@]1(NC(=O)[C@@H]1C[C@@H](Oc2nccc3ccc(Br)cc23)CN1C(C)=O)C(=O)NS(=O)(=O)C1CC1	1b WT			luciferase	Hepatitis C virus		EC50	>3 µM
CCC(CCC(C)C1CCC2C3C[C@@H](O)[C@@]4(O)C[C@@H](O)CCC4(C)C3CCC12C)C(C)C		HepG2 2.2.15	12.5 µg/mL	antigen	Hepatitis B virus		inhibition	21.2%
Nc1nc2c(ncn2COC(CO)CO)c(=O)[nH]1		P3HR-1		hybridisation	Epstein-Barr virus		EC50	0.4 µg/mL
N/C(=N\N=C\c1ccc(Cl)cc1)N/N=C/c1ccc(Cl)cc1	Human isolate	L929	20 µg/mL		Cryptosporidium parvum		inhibition	7.54%
Nc1nccc2c1ncn2[C@@H]1C[C@H](CO)[C@@H](O)[C@H]1O		RK-13		cytopathic effect	Vesicular stomatitis virus		EC50	2 µg/mL
CC(C)N1CCC2(C1)C1CC3CC(C1)CC2C3	TYPE A21	HeLa	100 µM		Coxsackie virus		inhibition	20–40%
CC(=O)N[C@H]1[C@@H](O[C@@H]2O[C@H](C[C@@H](O)[C@H]3O[C@@H](n4ccc(=O)[nH]c4=O)[C@H](O)[C@@H]3O)[C@H](O)[C@H](O)[C@H]2NC(=O)/C=C/CC(C)C)O[C@H](CO)[C@@H](O)[C@@H]1O		VERO		plaque count	Semliki Forest virus		EC50	<0.5 µg/mL
Cc1c(N2C[C@H](N)C3(CC3)C2)c(F)cn2c(=O)c(C(=O)O)cc(C3CC3)c12	ATCC 8043				Enterococcus faecium		MIC	0.05 µg/mL
CC(C)S(=O)(=O)n1c(N)nc2ccc(/C(=N/O)c3ccccc3)cc21	Serotype 14	HeLa		plaque count	Rhinovirus		EC50	0.03 µg/mL
CC(N)Cc1ccccc1	KOS	HeLa		cytopathic effect	Herpes simplex virus 1		EC50	>200 µg/mL
CCCCCCCCN(CC1=C(O)c2ccccc2C(=O)C1=O)Cc1ccccc1	ATO				Toxoplasma gondii		EC50	1.2 µM
O=c1c2ccccc2ccc2ccccc12	TYPE 14	HELA-H1		cytopathic effect	Rhinovirus		EC50	30 µM
CC(C)CN(C[C@@H](O)[C@H](Cc1ccccc1)NC(=O)[C@H](CC(N)=O)NC(=O)c1ccc2ccccc2n1)C(=O)NC(C)(C)C	NL4-3	MT-4		p24	HIV-1	PR-V82T	EC95	0.1 µM
Cc1cn(COC(CP(=O)(O)O)C(O)CO)c(=O)[nH]c1=O	Sicilian strain Vero cells			cytopathic effect	Sandfly fever virus		EC50	>320 µg/mL
Cc1c(N2C[C@@H](N)C3(CC3)C2)c(F)cn2c(=O)c(C(=O)O)cc(C3CC3)c12	ATCC 8043				Enterococcus faecium		MIC	0.02 µg/mL
C/C=C1/CN2CCC34c5ccccc5N5C=C6[C@H]7C[C@@H]8N(CCC89c8ccccc8N(C=C([C@H]1C[C@H]23)[C@H]54)[C@@H]69)C/C7=C/C	W2				Plasmodium falciparum		EC90	2.969 µg/mL
C1CCN2C[C@H]3C[C@H](CN4CCCC[C@@H]34)[C@H]2C1	KOS	HeLa		cytopathic effect	Herpes simplex virus 1		EC50	>200 µg/mL
C[C@@H](O)[C@H]1C(=O)N2C(C(=O)O)=C(SCCN=CN)C[C@H]12	S10				Pseudomonas aeruginosa		MIC	1 µg/mL
CN1CCC2(C1)C1CCCC2CCC1	TYPE A21	HeLa	100 µM		Coxsackie virus		inhibition	20–40%
Cc1cn([C@H]2C[C@H](N=[N+]=[N-])[C@@H](CO)O2)c(=O)[nH]c1=O	LAV-2	CEM	100 µM	virus yield	HIV-2		inhibition	99.9%
C[C@H](Cn1cnc2c(N)ncnc21)OCP(=O)(O)O		SupT1		syncytia	Human herpesvirus 7		EC50	>250 µg/mL
CN[C@@H]1[C@@H](O)[C@@H](O[C@@H]2[C@@H](O)[C@H](O[C@H]3O[C@H](CN)CC[C@H]3N)[C@@H](N)C[C@H]2N)OC[C@]1(C)O	S10				Pseudomonas aeruginosa		MIC	2 µg/mL
Cc1cn([C@H]2C[C@H](N=[N+]=[N-])[C@@H](CO)O2)c(=O)[nH]c1=O	Calf isolate	L929	4 µg/mL		Cryptosporidium parvum		inhibition	-2.56%
C/C=C1/CC2CCC3=C(Cc4ccccc43)C2C[C@@H]1C1=CN2c3ccccc3C34CCN5C/C(=C/O)[C@H](C[C@H]53)[C@@H]([C@@H]1O)[C@H]24	W2				Plasmodium falciparum		EC90	3.161 µg/mL
CCC[C@@H]1C[C@@H](C(=O)N[C@@H]([C@H]2O[C@H](SC)[C@H](O)[C@@H](O)[C@H]2O)[C@@H](C)O)N(C)C1	KOS	HeLa		cytopathic effect	Herpes simplex virus 1		EC50	>100 µg/mL
C[C@@H](O)C1=C[C@@H](n2cnc3c(N)ncnc32)[C@H](O)[C@@H]1O	SSPE Yamagata-1	VERO		plaque count	Measles virus		EC50	0.12 µg/mL
CCCC(N)C1CCN(c2c(F)cn3c(=O)c(C(=O)O)cc(C4CC4)c3c2C)C1	ATCC 8043				Enterococcus faecium		MIC	0.02 µg/mL
CN1CCC2(C1)C1CC3CC(C1)CC2C3	TYPE A21	HeLa	100 µM		Coxsackie virus		inhibition	40–70%
COC(=O)N[C@H](C(=O)N1CCC[C@H]1c1ncc(-c2ccc(-c3ccc(-c4cnc([C@@H]5CCCN5C(=O)[C@@H](NC(=O)OC)C(C)C)[nH]4)cc3)cc2)[nH]1)C(C)C	1b Con1	Huh7	0.00002 µM	luciferase / replicon	Hepatitis C virus		inhibition	58.64%
CC(O)C(CP(=O)(O)O)OCn1ccc(N)nc1=O	Sicilian strain Vero cells			cytopathic effect	Sandfly fever virus		EC50	>320 µg/mL
Cc1ccc(N2NOC(=O)C2S(=O)(=O)Nc2nc(-c3ccc(Br)cc3)cs2)cc1	MTCC323		250 µg/mL	agar diffusion	Aspergillus clavatus		zone	21 mm
O=C(O)c1cc2oc3ccccc3c2cc1O	TYPE 16	HELA-H1	20 µM	plaque count	Rhinovirus		inhibition	85%
CO[C@@H]1[C@@H](OC(N)=O)[C@@H](O)[C@H](Oc2ccc3c(O)c(NC(=O)c4ccc(O)c(CC=C(C)C)c4)c(=O)oc3c2C)OC1(C)C		P3HR-1		PCR	Epstein-Barr virus		EC50	46.21 µM
CC(C)(C)NC(=O)[C@@H]1C[C@@H]2CCCC[C@@H]2CN1C[C@@H](O)[C@H](Cc1ccccc1)NC(=O)[C@H](CC(N)=O)NC(=O)c1ccc2ccccc2n1	NL4-3	MT-4		p24	HIV-1	PR-L10R M46I V82T	EC95	0.025 µM
C/C=C1/CN2CCC34c5ccccc5N5C(OC)C67OC(C([C@H]53)[C@H]1C[C@H]24)N1c2ccccc2C2(CCN3C/C(=C/C)[C@@H]6C[C@H]32)[C@@H]17	3D7				Plasmodium falciparum		EC90	3.632 µg/mL
NC(=O)c1ncn([C@@H]2O[C@H](CO)[C@@H](O)[C@H]2O)n1	SA	CV-1		cytopathic effect	Measles virus		EC50	20 µg/mL
Cc1ccc(N2NOC(=O)C2S(=O)(=O)Nc2nc(-c3c(Cl)cccc3Cl)cs2)cc1	MTCC323		250 µg/mL	agar diffusion	Aspergillus clavatus		zone	20 mm
Cc1cn([C@H]2C/C(=N\O)[C@@H](CO)O2)c(=O)[nH]c1=O		P3HR-1		hybridisation	Epstein-Barr virus		EC50	1.5 µg/mL

For reference, 9 entries again:

structure,strain,cell line,dose,read by,species,mutations,measure,result
Cc1cn([C@H]2C[C@H](N=[N+]=[N-])[C@@H](CO)O2)c(=O)[nH]c1=O,2300,PBMC,,ELISA,HIV-2,,EC50,0.013 µM
Cc1c(N2CCC(C(N)C3CC3)C2)c(F)cn2c(=O)c(C(=O)O)cc(C3CC3)c12,ATCC 8043,,,,Enterococcus faecium,,MIC,0.05 µg/mL
C[C@@H](O)C1=C[C@@H](n2cnc3c(N)ncnc32)[C@H](O)[C@@H]1O,SSPE Yamagata-1,VERO,,plaque count,Measles virus,,EC50,0.12 µg/mL
CC(C)(C)NC(=O)[C@@H]1C[C@@H]2CCCC[C@@H]2CN1C[C@@H](O)[C@H](Cc1ccccc1)NC(=O)[C@H](CC(N)=O)NC(=O)c1ccc2ccccc2n1,NL4-3,MT-4,,p24,HIV-1,PR-L10R M46I V82T,EC95,0.025 µM
C/C=C1/CN2CCC34c5ccccc5N5C=C6[C@H]7C[C@@H]8N(CCC89c8ccccc8N(C=C([C@H]1C[C@H]23)[C@H]54)[C@@H]69)C/C7=C/C,W2,,,,Plasmodium falciparum,,EC90,2.969 µg/mL
CC(O)C(CP(=O)(O)O)OCn1ccc(N)nc1=O,Sicilian strain Vero cells,,,cytopathic effect,Sandfly fever virus,,EC50,>320 µg/mL
CN1CCC2(C1)C1CC3CC(C1)CC2C3,TYPE A21,HeLa,100 µM,,Coxsackie virus,,inhibition,40–70%
Nc1nc(NC(c2ccccc2)c2ccccc2)c2ncn(CCOCP(=O)(O)O)c2n1,,P3HR-1,,hybridisation,Epstein-Barr virus,,EC50,1.3 µg/mL
Cc1ccc(N2NOC(=O)C2S(=O)(=O)Nc2nc(-c3ccc(Br)cc3)cs2)cc1,MTCC323,,250 µg/mL,agar diffusion,Aspergillus clavatus,,zone,21 mm

Blank or dashed fields: not listed here. Two numbers with a dash give a range or band. Rows are shuffled and stem from different studies. Zones are inhibition diameters on agar. Percent inhibition refers to the dose given; in toxicity tests it is the harm to the cells.